Experimental data from article PMC7667037.
For at least one entry, the source does not settle the construct or the ends of the probe.

Experiments:
[1] = test system: LmiA (Z4267); test: competition with a labelled probe; details: labeled PLEE1, 10-100 nM competitor; EMSA: 1 nM probe, 1 mM Tris-HCl pH 7.5, 0.1 mM EDTA, 0.2 mM DTT, 5 mM MgCl2, 10 mM KCl, 20 min 37 C; PhoP with 0.1 M acetyl phosphate; recombinant protein; protein details: N-terminal 6xHis (pET-28a); probe letters rebuilt from the primers and the genome
[2] = test system: LmiA (Z4267); test: EMSA; details: 5 mM Mg2+; EMSA: 1 nM probe, 1 mM Tris-HCl pH 7.5, 0.1 mM EDTA, 0.2 mM DTT, 5 mM MgCl2, 10 mM KCl, 20 min 37 C; PhoP with 0.1 M acetyl phosphate; recombinant protein; protein details: N-terminal 6xHis (pET-28a); label: DIG; probe letters rebuilt from the primers and the genome

Sequence | binding result [1] | binding result [2]
TCCTGGGGATTCACTCGCTTGCCGCCTTCCTGTAACTCGAATTAAGTAGAGTATAGTGAAACGGTTCAGCTTGGTTTTTATTCTGTTTTATTTGTTTATGCAATGAGATCTATCTTATAAAGAGAAACGCTTAACTAAATGGAAATGCAATTATTAAAGTCGTTTGTTAACGAGATGATTTTCTTCTATATCATTGATTTTAAATGGATTTTAAAAATATATGATTTTTTTGTTGACATTTAATGATAATGTATTTTACACATTAGAAAAAAGAGAATAATAACATTTTAAGGTGGTTGTTTGATGAAATAGATGTGTCCTAATTTGATAGATAAACGTTATCTCACATAATTTATATCATTTGATTAATTGTTGGTCCTTCCTGATAAGGTCGCTAATAGCTTAAAATATTAAAGCATGCGGAGATTATTTATTATGA (double strand) [PLEE1 unlabeled competitor] | binds | –
TCCTGGGGATTCACTCGCTTGCCGCCTTCCTGTAACTCGAATTAAGTAGAGTATAGTGAAACGGTTCAGCTTGGTTTTTATTCTGTTTTATTTGTTTATGCAATGAGATCTATCTTATAAAGAGAAACGCTTAACTAAATGGAAATGCAATTATTAAAGTCGTTTGTTAACGAGATGATTTTCTTCTATATCATTGATTTTAAATGGATTTTAAAAATATATGATTTTTTTGTTGACATTTAATGATAATGTATTTTACACATTAGAAAAAAGAGAATAATAACATTTTAAGGTGGTTGTTTGATGAAATAGATGTGTCCTAATTTGATAGATAAACGTTATCTCACATAATTTATATCATTTGATTAATTGTTGGTCCTTCCTGATAAGGTCGCTAATAGCTTAAAATATTAAAGCATGCGGAGATTATTTATTATGA (double strand) [PLEE1] | – | binds
